The results in this text go back to US20200200749A1 (published 2020).

What all share (experiment): ELISA
One test concerns the target T1, SUDV GP (recombinant) (SUDV (Sudan ebolavirus), UniProt Q66814 33-650).
T1 chain: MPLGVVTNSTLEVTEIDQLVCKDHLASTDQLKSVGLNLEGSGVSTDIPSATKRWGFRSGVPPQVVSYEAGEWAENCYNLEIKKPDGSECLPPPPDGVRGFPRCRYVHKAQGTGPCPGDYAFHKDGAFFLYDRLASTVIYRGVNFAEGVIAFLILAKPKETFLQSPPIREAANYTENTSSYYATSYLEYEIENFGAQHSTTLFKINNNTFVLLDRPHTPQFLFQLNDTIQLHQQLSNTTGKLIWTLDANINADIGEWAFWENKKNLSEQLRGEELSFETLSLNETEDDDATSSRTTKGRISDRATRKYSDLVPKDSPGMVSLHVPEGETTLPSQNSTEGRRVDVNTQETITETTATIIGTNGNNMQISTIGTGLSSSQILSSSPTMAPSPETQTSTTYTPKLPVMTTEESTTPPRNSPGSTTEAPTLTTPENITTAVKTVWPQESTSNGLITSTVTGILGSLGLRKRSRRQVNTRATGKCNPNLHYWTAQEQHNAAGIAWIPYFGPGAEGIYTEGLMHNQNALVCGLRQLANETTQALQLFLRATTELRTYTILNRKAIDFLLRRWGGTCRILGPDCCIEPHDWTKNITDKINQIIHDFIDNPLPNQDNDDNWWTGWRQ

The target in the next test is T2, EBOV sGP (EBOV (Ebola Zaire), UniProt P60170 33-324).
T2 chain: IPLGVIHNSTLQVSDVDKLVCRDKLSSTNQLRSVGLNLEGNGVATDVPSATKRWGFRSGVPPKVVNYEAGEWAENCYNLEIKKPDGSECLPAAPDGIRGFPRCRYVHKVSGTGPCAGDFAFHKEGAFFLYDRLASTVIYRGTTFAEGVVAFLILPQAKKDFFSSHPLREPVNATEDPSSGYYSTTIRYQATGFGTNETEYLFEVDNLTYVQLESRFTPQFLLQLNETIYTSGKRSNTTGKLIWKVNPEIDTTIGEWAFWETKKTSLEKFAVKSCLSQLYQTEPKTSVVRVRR

The target in test [1] is T3, EBOV GP (recombinant, full-length extracellular domain) (EBOV (Ebola Zaire), UniProt Q05320 33-650).
T3 chain: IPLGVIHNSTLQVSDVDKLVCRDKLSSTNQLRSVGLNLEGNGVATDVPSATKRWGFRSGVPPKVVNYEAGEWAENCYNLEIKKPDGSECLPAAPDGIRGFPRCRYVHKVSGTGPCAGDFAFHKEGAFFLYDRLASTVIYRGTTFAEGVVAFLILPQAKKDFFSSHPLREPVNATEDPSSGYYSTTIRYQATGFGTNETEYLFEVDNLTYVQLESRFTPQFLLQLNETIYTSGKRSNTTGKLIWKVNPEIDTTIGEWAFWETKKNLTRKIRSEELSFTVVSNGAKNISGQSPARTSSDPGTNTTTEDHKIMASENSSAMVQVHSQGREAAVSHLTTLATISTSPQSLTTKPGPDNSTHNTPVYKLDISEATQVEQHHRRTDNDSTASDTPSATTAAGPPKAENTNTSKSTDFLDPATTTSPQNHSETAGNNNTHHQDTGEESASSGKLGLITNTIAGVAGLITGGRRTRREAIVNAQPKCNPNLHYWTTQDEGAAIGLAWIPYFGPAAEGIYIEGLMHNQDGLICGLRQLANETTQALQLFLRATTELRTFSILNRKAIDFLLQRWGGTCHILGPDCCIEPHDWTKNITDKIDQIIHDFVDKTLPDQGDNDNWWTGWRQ

In a further test the target is MARV GP.

By EC50 is commonly meant the concentration at which the effect is half-maximal.

B1: EBOV157 (antibody, V domains shown)
VH: QVQLVQSGGGLVQPGGSLRLSCAASGFTVSNNYMSWVRQAPGKGLEWVSIFYSDGTTYNADSVKGRFTISRDNSKNTLYLQMNSLRAEDTAVYYCARQASGYDAYYMDVWGQGTLVTVSS
VL: DIVMTQSPSTLSASVGDRVTITCRASQSINSWLAWYQQKPGKAPKLLIYQASTLERGVPSRFSGSGAGTEFTLTISSLQPDDFATYYCQQYSSFPLTFGGGTKVELK
With B1, the EC50 is more than 10 µg/mL with SUDV GP (recombinant), 1.45 µg/mL in the test with EBOV sGP and 0.126 µg/mL in test [1].

B2: 157 (antibody, V domains shown)
VH: QVQLVQSGGGLVQPGGSLRLSCAASGFTVSNNYMSWVRQAPGKGLEWVSIFYSDGTTYNADSVKGRFTISRDNSKNTLYLQMNSLRAEDTAVYYCARQASGYDAYYMDVWGQGTLVTVSS
VL: DIVMTQSPSTLSASVGDRVTITCRASQSINSWLAWYQQKPGKAPKLLIYQASTLERGVPSRFSGSGAGTEFTLTISSLQPDDFATYYCQQYSSFPLTFGGGTKVELK
In the test with MARV GP, B2 yielded an EC50 of more than 10 µg/mL.
